Legend:
[1] = molecular target: S. aureus YidC2 (Staphylococcus aureus, UniProt Q2FWG4); assay: thermal shift in bacterial lysate, immunoblot; conditions: 10 μg/mL compound; vehicle Tm 61.2 °C
[2] = molecular target: S. aureus YidC2 (SaYidC2) (Staphylococcus aureus, UniProt Q2FWG4); assay: SPR steady-state, NTA chip with amine coupling, one-site fit; conditions: pH 7.4, 25 mM NaPi, 300 mM NaCl, 0.1% DDM, 0.01% CHS, 0.05% Tween20, 2.5% DMSO

By UniProt entry, the sequences of proteins in these tests, tags left out. Residues count along the entry.
UniProt Q2FWG4, 20-290 limits assumed: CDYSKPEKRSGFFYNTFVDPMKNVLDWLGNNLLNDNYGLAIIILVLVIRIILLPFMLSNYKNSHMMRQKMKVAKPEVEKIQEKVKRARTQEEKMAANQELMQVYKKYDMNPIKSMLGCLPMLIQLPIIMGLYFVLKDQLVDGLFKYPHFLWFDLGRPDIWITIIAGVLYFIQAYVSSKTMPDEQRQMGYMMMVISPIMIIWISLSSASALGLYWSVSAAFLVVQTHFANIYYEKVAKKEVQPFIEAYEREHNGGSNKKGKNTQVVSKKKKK

NS(=O)(=O)Nc1ccc(-n2nc(C(F)(F)F)cc2-c2ccc3c(ccc4ccccc43)c2)cc1
Tm [1]: 75.5 °C
Kd [2]: 190 nM

Source: publication PMC7730571
